A mixed list of measured activities; the numbers were collected in NIAID ChemDB.

Shared fields: growth or infection tests; species: HIV-1; measure: fold resistance

Rows are shuffled and stem from different studies. An empty or dashed field is not shown. Fold resistance has wild type as its base.

structure	mutations	strain or isolate	method	cells	conditions	result
COc1ccc(S(=O)(=O)N(CC(C)C)C[C@@H](O)[C@H](Cc2ccc(OC)c(Cl)c2)NC(=O)O[C@H]2CO[C@H]3OCC[C@H]32)cc1	L23I E34Q K43I M46I I50L G51A L63P A71V V82A T91A	NL4-3	p24 / luminescence	MT-4		6
Nc1ccn([C@H]2CC[C@@H](CO)O2)c(=O)n1	RT-D67N T69D T215Y	JF14 (RT D67N T69D T215Y)	plaque count	HELA-CD4+		3.98
COc1cc(-n2c(C)nnc2SCC(=O)Nc2ccc(S(N)(=O)=O)cc2Cl)c2ncccc2c1	RT-Y188L	NL4-3	luciferase	HeLa + HeLa-JC53		462
Cn1c2ccccc2c2c1cc(C#N)c(=O)n2-c1ccc([N+](=O)[O-])cc1	RT-M41L D67N T69N K70R T215F K219E	NRTI resistant	luciferase	HeLa		0.7
Cc1cn([C@H]2C[C@H](N=[N+]=[N-])[C@@H](CO)O2)c(=O)[nH]c1=O	RT-L100I	IIIB TIBO R82150-resistant (RT L100I)	syncytia	CEM		1
Nc1ccn([C@H]2CC[C@@H](CO)O2)c(=O)n1	RT-D67N K70R L74V T215F K219Q	HIVRTMC (RT D67N K70R L74V T215F K219Q)	plaque count			14.3
CC(C)=CCOc1cc(NC(=S)c2ccoc2C)ccc1Cl	RT-E138K	IIIB	cytopathic effect	CEM		2
Cc1cc(S(N)(=O)=O)ccc1NC(=O)COc1ccc(Cl)cc1C(=O)c1cc(Cl)cc(C#N)c1	RT-V106I	NNRTI-resistant (RT V106I)	β-galactosidase	MAGI		2.1
Cc1ccc(NC(=O)CSc2nnc(C)n2-c2cccc3cccnc23)c(Cl)c1	RT-Y188L	NL4-3	luciferase	HeLa + HeLa-JC53		712
O=c1[nH]cnc2c1ncn2[C@H]1CC[C@@H](CO)O1	RT-M41L T69ins L74V M184V L210W T215Y	52534-2 NRTI resistant recombinant	RT activity	PBMC		3.3
COC(=O)N[C@H](C(=O)N[C@@H](Cc1ccccc1)[C@@H](O)CN(Cc1ccc(-c2ccccn2)cc1)NC(=O)[C@@H](NC(=O)OC)C(C)(C)C)C(C)(C)C	L10F M46I I54V V82A	NL4-3	p24 / luminescence	MT-4		21
CC(C)CN(C[C@@H](O)[C@H](Cc1ccccc1)NC(=O)O[C@H]1CCOC1)S(=O)(=O)c1ccc(N)cc1	PR-D30N A71V	NL4-3-P22 (PR D30N A71V)	p24	MT-4		0.5
C#C[C@]1(CO)O[C@@H](n2cc(C)c(=O)[nH]c2=O)C[C@@H]1O	RT-K65R		β-galactosidase	HeLa		0.679
Nc1ccn([C@H]2CC[C@@H](CO)O2)c(=O)n1	RT-Y181C	IIIB-Nevirapine(1.0)(RT-Y181C)	syncytia	CEM		1.56
CC(C)(C)C(=O)c1sc(C(=O)NCCc2ccccc2)c(O)c1O	INTG-S153 N155S					2
Cc1cc(O)cc(S(=O)(=O)c2cccc(N)c2C#N)c1	RT-P236L		β-galactosidase	HeLa + HELA CD4+		1.11
O=c1[nH]cnc2c1ncn2[C@H]1CC[C@@H](CO)O1	RT-P294S	HXB2-D294 (RT-P294S)	RT activity	MT-4		0.885
Cc1cc(Br)cc(S(=O)(=O)c2cccc(N)c2C#N)c1	RT-L100I K103N		β-galactosidase	HeLa + HELA CD4+		273
C[C@]1(CO)O[C@@H](n2ccc(N)nc2=O)C[C@@H]1O	RT-L74V		β-galactosidase	HeLa		0.89
CC(=O)c1ccc(C)cc1NC(C(N)=O)c1c(Cl)cccc1Cl	RT-V189I T240I	IIIB	MTT	MAGI		40
CCc1cc(NCc2nc3c(Cl)ccc(Cl)c3o2)c(=O)[nH]c1C	RT-P236L	MFE30(RT-P236L)	antigen	MT-4		<0.1
CC(C)(C)NC(=O)[C@@H]1C[C@@H]2CCCC[C@@H]2CN1C[C@@H](O)[C@H](Cc1ccccc1)NC(=O)[C@H](CC(N)=O)NC(=O)c1ccc2ccccc2n1	PR-L10R M46I L63P V82T I84V	NL4-3	p24	MT-4		8
Nc1cccc(CN2C(=O)N(Cc3cccc(N)c3)[C@H](Cc3ccccc3)[C@H](O)[C@@H](O)[C@H]2Cc2ccccc2)c1	PR-L10F M46I D60E I84V	Thai (PR L10F M46I D60E I84V)	virus yield	MT-2		60
COc1cc(C(F)(F)F)cc(S(=O)(=O)c2cccc(N)c2C#N)c1	RT-L100I K103N		β-galactosidase	HeLa + HELA CD4+		1360
Cc1cn([C@@H]2O[C@H](CO[Si](C)(C)C(C)(C)C)C3(OS(=O)(=O)C=C3N)[C@H]2O[Si](C)(C)C(C)(C)C)c(=O)n(C)c1=O	RT-E138K	IIIB	cytopathic effect	CEM		1330
CC(C)Nc1cccnc1N1CCN(C(=O)c2cc3cc(NS(C)(=O)=O)ccc3[nH]2)CC1	RT-K101E	C-1 (RT-K101E)	cytopathic effect	CEM		1
Cc1cc(S(N)(=O)=O)ccc1NC(=O)COc1ccc(Cl)cc1C(=O)c1cccc(C#N)c1	RT-Y181C	Nevirapine-resistant	cytopathic effect / MTS	MT-4		2
Nc1ccn([C@H]2C[C@H](O)[C@](CO)(CF)O2)c(=O)n1	RT M41L T69SSG insertion T215Y	RT-M41L T69SSG T215Y	β-galactosidase	HeLa		14.3
Nc1ncnc2c1ncn2[C@@H]1O[C@H](CO)C[C@@H]1F	RT-P119S	P119S(RT-P119S)	p24	MT-2		4.6
Nc1nc(=O)n([C@H]2CS[C@@H](CO)O2)cc1F	Y143C	HXB2	recombinant virus assay / single cycle	MT-2	pseudotyped	1.1
Nc1ncnc2c1ncn2CCOCP(=O)(O)O	RT-P119S L214F	RT P119S L214F	p24	MT-2		1.3
Cc1cc(C#N)cc(C)c1Oc1nc(Nc2ccc(C#N)cc2)ncc1SCC(=O)N1CCSCC1	RES056		MTT	MT-4		102.1
Cc1cc(C)cc(S(=O)(=O)c2c(C(=O)NC(C)C(=O)NC(C)c3ccccc3F)[nH]c3ccc(Cl)cc23)c1	Y188L	NL4-3	cytopathic effect / MTT / absorbance	MT-4		>25387
Fc1cccc(F)c1C1SCc2nc3ccccc3n21	RT-K103N	TIBO R82150-resistant (RT K103N)	cytopathic effect / MTT	CEM		11.2
CC(=O)Oc1ccc(/C=C/C(=O)O[C@H](C(=O)O)[C@H](OC(=O)/C=C/c2ccc(OC(C)=O)c(OC(C)=O)c2)C(=O)O)cc1OC(C)=O	AMD3100-resistant	NL4-3	cytopathic effect / MTT	MT-4		>12
Cc1cc(S(N)(=O)=O)ncc1NC(=O)COc1ccc(Cl)cc1C(=O)c1cc(Cl)cc(C#N)c1	RT-Y181C	HXB2	β-galactosidase	HeLa + HeLa-MAGI		1
COC(=O)c1cc2c(c(OC)c1-c1ccc(N(C)C)cc1)OCO2	K103N + Y181C	A17	antigen	C8166		148
Cc1ccc(-n2c(C)nnc2SCC(=O)Nc2cccc(C)c2C)cc1	RT-K103N Y181C	NL4-3	luciferase	HeLa + HeLa-JC53		>167
Cc1occc1C(=S)Nc1ccc(Cl)c(/C=N/OC(C)(C)C)c1	RT-V106A	IIIB	cytopathic effect	CEM		3.13
CC(C)CN(C[C@@H](O)[C@H](Cc1ccccc1)NC(=O)[C@H](CC(N)=O)NC(=O)c1ccc2ccccc2n1)C(=O)NC(C)(C)C	PR-L63P V82T	NL4-3	p24	MT-4		1
Nc1ccn([C@H]2CC[C@@H](CO)O2)c(=O)n1	RT-K65R	K65R(RT-K65R)	p24	MT-2		4.3
Cc1cn([C@H]2C[C@H](N=[N+]=[N-])[C@@H](CO)O2)c(=O)[nH]c1=O	INTG-V151I					1
Fc1cccc(F)c1C1OCc2nc3ccccc3n21	RT-E138K	TSAO-resistant (RT E138K)	cytopathic effect / MTT	CEM		1.82
Cc1cn([C@H]2C[C@H](N=[N+]=[N-])[C@@H](CO)O2)c(=O)[nH]c1=O	RT-M41L A62V S68N G112S M184V	Recombinant	luciferase	HeLa		0.1
O=C(NCc1ccc(F)cc1)c1nc(N2CCCCS2(=O)=O)c2cccnc2c1O	INTG-S153Y					2
Cc1ccc(NC(=O)CSc2nnc(C)n2-c2cccc3ccccc23)c(Cl)c1	RT-Y188L	NL4-3	luciferase	HeLa + HeLa-JC53		147
Cc1cn([C@H]2C[C@H](N=[N+]=[N-])[C@@H](CO)O2)c(=O)[nH]c1=O	RT-F77L F116Y Q151M	RT F77L/F116Y/Q151M	p24	MT-2		54.6
O=P(O)(O)Cc1cc2c(O)c(c1)Sc1cc(CP(=O)(O)O)cc(c1O)Sc1cc(CP(=O)(O)O)cc(c1O)Sc1cc(CP(=O)(O)O)cc(c1O)S2	NNRTI-resistant		luciferase	TZM-bl + MT-2		0.6
O=c1[nH]cnc2c1ncn2[C@H]1CC[C@@H](CO)O1	RT	RTMDR	β-galactosidase	HeLa		3.13
CC(C)=CCOc1cc(NC(=S)c2ccsc2C)ccc1Cl	RT-E138K	IIIB	cytopathic effect	CEM		2
Cc1cn([C@H]2C[C@H](N=[N+]=[N-])[C@@H](CO)O2)c(=O)[nH]c1=O	RT-M41L D67N K70R M184V T215Y	RR/Q184 (RT M41L D67N K70R T215Y M184V)	plaque count	HT4LACZ-1 + HT4 LacZ-1		3.5